The values that follow come from PubChem BioAssay AID504582 (Broad Institute, 2011).

Only a part is listed here, and it is no random draw. Active and inactive are the calls of the source. No stated cut-off is given here; in the data, active means growth rescue above about 28% (passing the limit was not always enough); inconclusive means no clear call, values can overlap the other calls.

The assay can be described thus: rescue of yeast from PfHsp40 toxicity, primary screen, S. cerevisiae, ATP luminescence (AID 504582).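 Further: yeast W303a lacking pdr1 and pdr3 grown in galactose medium; growth measured after three days at 30 °C.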 As to conditions: S. cerevisiae expressing PfHsp40, growth rescue, at 12.5 µM, stronger effect = higher value.
As to `Cc1ccc(NP(=O)(Oc2ccccc2)Oc2ccccc2)nc1`, the growth rescue is inactive: 2.16%.
The same measure for `O=[N+]([O-])c1cc([N+](=O)[O-])c(CCNc2ccccc2)c([N+](=O)[O-])c1`: inactive: -0.734%; for `CCc1nc2c(n1)c1c(non1O)c1c2no[n+]1[O-]`: inactive: -0.296%; for `CC(=O)N1C2C3N(C(C)=O)C1C1N(C(C)=O)C(C(N1C(C)=O)N3C(C)=O)N2C(C)=O`: inactive: -0.805%.
The same measure for `O=[N+]([O-])c1cccc2n[nH]nc12`: inactive: -0.276%; for `COc1ccc(C2=NCC(CBr)S2)cc1` (stereo not drawn): inactive: -2.43%; for `CC1CCN(C(=O)Oc2c(Cl)cc(Cl)c3cccnc23)CC1`: inactive: 0.175%.
The same measure for `CC(C)=N/N=C(\N)N[N+](=O)[O-]`: inactive: -1.06%; for `CN(C)C(=O)OCCc1n(C)cc[n+]1C`: inactive: 0.606%; for `CCN(/C(=N/P(=O)(N1CCOCC1)N1CCOCC1)N1CCOCC1)c1ccc(OC)cc1`: inactive: -0.505%.
Take `Nc1ccc([As](=O)(O)c2ccc(N)cc2)cc1`: the growth rescue is inactive: 0.025%.
The same measure for `C[N+]1=C2C=CC=CC=C2SC12C([N+](=O)[O-])=CC([N+](=O)[O-])=C[C-]2[N+](=O)[O-]` (stereo not drawn): active: 36.5%; for `O=C(Nc1cc([As](=O)(O)O)ccc1O)c1ccccc1`: inactive: 0.642%; for `O=P1(N(CCCl)CCCl)OCCCS1` (stereo not drawn): inactive: -0.397%.
The same measure for `O=C(O)CNc1ccc([As](=O)(O)O)cc1`: inactive: 0.733%; for `O=[N+]([O-])c1cccc(NC2=NCC(CBr)S2)c1` (stereo not drawn): inactive: -0.51%.
The same measure for `COC(=O)C1(C)COP(=O)(Nc2ccccc2)OC1` (stereo not drawn): inactive: 1.08%; for `Cn1c(=O)[nH]c(=O)c2c1nc(Br)n2Cc1ccccc1`: inactive: 0.819%.
Regarding `O=[N+]([O-])c1ncn(CCn2ncnc2[N+](=O)[O-])n1`, the growth rescue was inactive: -0.449%.
Then `CC(C)(C)C(=O)NC(Sc1ccncn1)C(Cl)(Cl)Cl` (stereo not drawn), with inactive: -1.22%; and `CCOP(=O)(Nc1ccccc1)OCC`, with inactive: -0.339%; and `Cc1cc(SC(NC(=O)c2ccc(F)cc2)C(Cl)(Cl)Cl)ncn1` (stereo not drawn), with inactive: -0.169%.
The same measure for `CN(C(=O)Cc1ccc(Cl)c(Cl)c1)[C@H]1CCCC[C@@H]1N1CCCC1`: inactive: 1.14%.
The same measure for `Cc1ccc(NP(=O)(Oc2ccccc2F)Oc2ccccc2F)nc1`: inactive: 0.322%; for `O=P(Nc1nc2ccc(Cl)cc2s1)(c1ccccc1)c1ccccc1`: inactive: 0.808%.
Take `O=C(O)c1ccccc1[As](=O)(O)O`: the growth rescue was inactive: 3.44%.
Then `CC(=O)Nc1ccc([As](=O)(O)O)cc1`, with inactive: -1.06%; and `CCCC1OP(N)(=O)OCC1CC` (stereo not drawn), with inactive: 5.05%.
